Reference: US12428405B2, “Chalcone-based chemotherapeutic compound for triple negative breast cancer” (QATAR UNIVERSITY, priority 2019, dated 2025)

Tested on: MDA-MB-231
Assay: Migration (wound healing) assay
Format: cell-based
Conditions: 5 μM

O=Cc1ccc(N(CCCl)CCCl)cc1
% migration (24 hours post treatment, control = 100, Mean ± SEM (N = 2 × 2)): 70.53 ± 1.95%
inhibition of cell migration (MDA-MB-231, 24 hours): 29.5±1.95%
